Here are results for one sequence from patent US7575758B2, “Acaricidal compositions and methods of use thereof” (dated 2009).

The test system of this experiment is A. americanum. In words: Acaricidal activity by direct injection of a single dose of toxin.

Usually mortality stands for the percentage killed. Higher therefore signals fewer survivors. On to “LLACLFGNGRCSSNRDCCELTPVCKRGSCVSSGPGLVGGILGGIL”, for which the mortality (single dose 6 nmol/g (about 25 μg/g) injected, unengorged male and female ticks, at 48 hours) stood at 100%. Further, for the setting “single dose 6 nmol/g injected”, the onset of symptoms result is “within a few minutes” and the paralysis entry was “irreversibly paralyzed”.
